Results of unrelated studies side by side (data: NIAID ChemDB).

All rows: whole-cell or culture tests; organism: HIV-1; endpoint: EC50

Two numbers with a dash give a range or band.

structure	changes	cells	strain	setting	value
C#C[C@]1(COC(=O)CCCCCCCC#CCCCCCCCC)O[C@@H](n2cnc3c(N)nc(F)nc32)C[C@@H]1O	M184V	U373-CD4-CXCR4	NL4-3	pseudotyped	0.014 µM
Nc1ccn([C@@H]2CO[C@@H](CO)S2)c(=O)n1	-	MT-4	-	-	>100 µg/mL
O=c1ccn([C@H]2O[C@@H](CO)CC2(F)F)c(=O)[nH]1	-	PBMC	LAV	-	>100 µM
Cc1cn(CC=C(CO)CO)c(=O)[nH]c1=O	-	-	-	-	>100 µg/mL
O=C(NCc1ccc(F)cc1)C1C(=O)N(O)C(=O)c2ccccc21	-	PBMC	IIIB	-	0.458 µM
COC(=O)[C@H](C)NP(=O)(OC[C@H]1O[C@@H](n2cc(C)c(=O)[nH]c2=O)C[C@@H]1N=[N+]=[N-])Oc1ccccc1	-	CEM + CEM TK-	IIIB	-	3 µM
COc1cc2ccnc3c2c(c1OC(=O)CSc1ccccc1)N(C)C=C3	-	-	-	-	4.6 µM
NC(=O)c1cnn([C@@H]2C=C(CO)C(O)C2O)c1	-	PBMC	LAI	-	24 µM
COc1ccc(C(=O)CSc2nc(CC3CCCCC3)c(C(C)C)c(=O)[nH]2)cc1	-	C8166	-	-	0.000162 µM
Cc1cn(CC2(OCP(=O)(O)O)CC2)c(=O)[nH]c1=O	-	-	-	-	>30 µM
C[C@@]1(n2ccc(N)nc2=O)CO[C@@H](CO)O1	-	MT-4	-	-	>100 µM
C#C[C@]1(COC(=O)CCCCCCCCCCCCCCCCCCC)O[C@@H](n2cnc3c(N)nc(F)nc32)C[C@@H]1O	M184V	U373-CD4-CXCR4	NL4-3	pseudotyped	0.333 µM
C[C@]1(n2ccc(=O)[nH]c2=O)CO[C@@H](CO)O1	-	MT-4	-	-	>100 µM
C=C(C)[C@@H]1CC[C@]2(COC(=O)CC(C)(C)C(=O)O)CC[C@@H]3[C@H](CC[C@H]4[C@H]3CC[C@H]3C(C)(C)[C@@H](OC(=O)C(C)(C)CC(=O)O)CC[C@]43C)[C@@H]12	-	H9	-	-	0.4 µM
CCN(CC)C(=S)SSC(=S)N(CC)CC	-	CEM-SS	-	-	>100 µM
CCCCCCCC/C=C/CCCCCCCCC(=O)Oc1c(OC)cc2ccnc3c2c1N(C)C=C3	-	-	-	-	52.8 µM
C=C(C)[C@@H]1CC[C@]2(C(=O)OC[C@H]3OC(n4cc(C)c(OC(=O)OCC)nc4=O)C[C@@H]3N=[N+]=[N-])CC[C@]3(C)[C@H](CC[C@@H]4[C@@]5(C)CC[C@H](O)C(C)(C)[C@@H]5CC[C@]43C)[C@@H]12	-	MT-4	IIIB	-	0.017 µM
COc1ccccc1NC(=O)c1ccccc1S(=O)(=O)c1ccc([N+](=O)[O-])cc1	-	MT-4	LAI	-	>50 µM
CC(C)CSc1nc(CC2CCCCC2)c(C(C)C)c(=O)[nH]1	-	C8166	-	-	0.09292 µM
O=c1ccn([C@@H]2O[C@H](CO)[C@@H](O)[C@H]2C(F)(F)F)c(=O)[nH]1	-	-	-	-	>100 µM
Nc1nc(=O)n([C@H]2O[C@@H](CO)CC2(F)F)cc1I	-	PBMC	LAV	-	>100 µM
Cc1nc2cc3nn2c(c1[C@H](OC(C)(C)C)C(=O)O)N1CCC(C)(/C=C/C=C/COc2ccc(Cl)cc2-c2cccc-3c2)CC1	-	MT-2	NL4-3	10% FBS	0.145 µM
C#C[C@]1(COC(=O)CCCCCCC/C=C\C/C=C\C/C=C\CC)O[C@@H](n2cnc3c(N)nc(F)nc32)C[C@@H]1O	-	U373-CD4-CXCR4	NL4-3	pseudotyped	0.021 µM
C=C(C)[C@@H]1CC[C@]2(COC(=O)CC(C)(C)C(=O)O)CC[C@@H]3[C@H](CC[C@H]4[C@H]3CC[C@H]3C(C)(C)[C@@H](OC(=O)CC(C)(C)C(=O)O)CC[C@]43C)[C@@H]12	-	H9	-	-	0.02 µM
O=c1ccn(CC=C(CO)CO)c(=O)[nH]1	-	-	-	-	>100 µg/mL
Cc1nc2cc3nn2c(c1[C@H](OC(C)(C)C)C(=O)O)N1CCC(C)(CC1)O/C=C\COc1ccc(F)cc1-c1cccc-3c1	-	MT-2	NL4-3	10% FBS	0.007 µM
COc1cc(C(OC(=O)c2ccc3c(c2)OCO3)[C@H](C)C(C)O)cc(O)c1OC	-	C8166	-	-	3.18 µg/mL
Nc1nc2c(ncn2CC2(OCP(=O)(O)O)CC2)c(=O)[nH]1	-	-	-	-	>30 µM
Cc1c(Sc2ccccc2)n(COCc2ccccc2)c(=O)[nH]c1=O	-	MT-4	-	-	0.076 µM
Cc1cn([C@H]2O[C@@H](CO)CC2(F)F)c(=O)[nH]c1=O	-	PBMC	LAV	-	>100 µM
C#C[C@]1(COC(=O)CCCCCCCCCCCCC)O[C@@H](n2cnc3c(N)nc(F)nc32)C[C@@H]1O	M184V	U373-CD4-CXCR4	NL4-3	pseudotyped	0.01 µM
CCCCCc1ccc(C(=O)Oc2c(OC)cc3ccnc4c3c2N(C)C=C4)cc1	-	-	-	-	18.8 µM
O=c1ccn([C@@H]2CO[C@@H](CO)S2)c(=O)[nH]1	-	MT-4	-	-	>100 µg/mL
Cc1cn([C@@H]2O[C@H](CO)[C@@H](O)[C@H]2C(F)(F)F)c(=O)[nH]c1=O	-	-	-	-	>100 µM
Cc1c(Sc2ccccc2)n(COCCOC(=O)c2ccccc2)c(=O)[nH]c1=O	-	MT-4	-	-	7.6 µM
[N-]=[N+]=N[C@]1(CO)O[C@@H](n2ccc(N)nc2=O)[C@H](O)[C@@H]1O	-	A3.01	LAV	-	>8.2 µM
C/C(=C\Cn1cc(C)c(=O)[nH]c1=O)CO	-	-	-	-	>100 µg/mL
Nc1nc(=O)n([C@@H]2CO[C@@H](CO)S2)cc1F	-	MT-4	-	-	>100 µg/mL
COc1ccccc1NC(=O)c1ccccc1S(=O)(=O)c1ccc([N+](=O)[O-])cc1.C[N+](C)(C)CCO	-	MT-4	LAI	-	>50 µM
N#Cc1cc(Cl)cc(Oc2c(Br)ccc(CC(=O)Nc3ccc(S(N)(=O)=O)cc3Cl)c2F)c1	V106A	MT-4	-	-	0.0016 µM
CCOC(=O)Oc1nc(=O)n([C@H]2C[C@H](N=[N+]=[N-])[C@@H](COC(=O)[C@]34CCC(C)(C)C[C@H]3C3=CC[C@@H]5[C@@]6(C)CC[C@H](O)C(C)(C)[C@@H]6CC[C@@]5(C)[C@]3(C)CC4)O2)cc1C	-	MT-4	IIIB	-	0.01 µM
CN(C)CCCOc1c(Br)c(Br)c(Br)c2c1OC(C)(C)C2	-	-	-	-	200 µM
CC(C)(C)NC(=O)c1ccccc1CCC(O)Cc1ccc2ccccc2c1C(=O)NC(C)(C)C	-	CEM + CEM-SS	-	-	63 µM
Cc1c(Sc2ccccc2)n(COCCCl)c(=O)[nH]c1=O	-	MT-4	-	-	1.7 µM
Cc1ccc(-c2c([C@H](OC(C)(C)C)C(=O)O)c(C)nc3ccccc23)cc1C	-	MT-2	-	-	0.036 µM
COc1cc2ccnc3c2c(c1OC(=O)N1CCCC1)N(C)C=C3	-	-	-	-	>100 µM
COc1ccc(C(=O)OC(c2cc(OC)c(OC)c(OC)c2)[C@H](C)C(C)O)cc1OC	-	C8166	-	-	3.87 µg/mL
CC(=O)N[C@@H]1OC(CO[Si](C)(C)C(C)(C)C)C2(OS(=O)(=O)C=C2N)C1O[Si](C)(C)C(C)(C)C	-	CEM + CEM/0	-	-	2.4 µM
COc1ccccc1NC(=O)c1cccnc1Sc1ccc([N+](=O)[O-])cc1	-	MT-4	LAI	-	>50 µM
COc1ccc(C(=O)CSc2nc(Cc3ccccc3)c(C(C)C)c(=O)[nH]2)cc1	-	C8166	-	-	0.1441 µM
CO[C@@]1(CO)O[C@@H](n2cc(C)c(=O)[nH]c2=O)C[C@@H]1O	-	A3.01	LAV	-	>200 µM
O=C(C(=O)N1CCN(C(=O)c2ccccc2)CC1)c1c[nH]c2ccccc12	-	MT-2	LAI	-	0.086 µM
CCNc1nc(N)nc2c1ncn2CC1(OCP(=O)(O)O)CC1	-	-	-	-	>30 µM
CCc1ccc(C(=O)Oc2c(OC)cc3ccnc4c3c2N(C)C=C4)cc1	-	-	-	-	0.5 µM
Clc1cccc(Cl)c1C1SCc2nc3cc4ccccc4cc3n21	-	CEM + CEM-SS	RF	-	>200 µM
C=C(C)[C@@H]1CC[C@]2(NCCCN3CCOCC3)CC[C@]3(C)[C@H](CC[C@@H]4[C@@]5(C)CC=C(c6ccc(C(=O)O)cc6)C(C)(C)[C@@H]5CC[C@]43C)[C@@H]12	-	MT-2	NL4-3	-	<0.1 µM
Cc1ccc(S(=O)(=O)n2c(=O)[nH]c3ccc(Cl)cc32)cc1C	-	MT-4	IIIB	-	0.006 µM
C#C[C@]1(COC(=O)CCCCCCCCCCCCCCCC)O[C@@H](n2cnc3c(N)nc(F)nc32)C[C@@H]1O	M184V	U373-CD4-CXCR4	NL4-3	pseudotyped	0.026 µM
CC(=O)N[C@H]1OC(CO[Si](C)(C)C(C)(C)C)C2(OS(=O)(=O)C=C2N)C1O[Si](C)(C)C(C)(C)C	-	MT-4	-	-	>7.7 µM
CCOCn1c(Sc2ccccc2)c(C)c(=O)[nH]c1=O	-	MT-4	-	-	0.8 µM
Cc1nc(N)nc2c1ncn2CC1(OCP(=O)(O)O)CC1	-	-	-	-	>30 µM
[N-]=[N+]=N[C@]1(CO)O[C@@H](n2cnc3c(N)ncnc32)C[C@@H]1O	-	A301 + A3.01	-	-	0.03 µM
C/C(=C\Cn1ccc(N)nc1=O)CO	-	-	-	-	>100 µg/mL
Nc1ncnc2c1ncn2[C@@H]1O[C@H](CO)C=C1F	-	MT-2	-	-	2.2 µM
C#C[C@]1(COC(=O)C(C)(C)CCC)O[C@@H](n2cnc3c(N)nc(F)nc32)C[C@@H]1O	M184V	U373-CD4-CXCR4	NL4-3	pseudotyped	0.091 µM
CCc1c(CC2CCCCC2)nc(SCC(=O)c2ccccc2)[nH]c1=O	-	C8166	-	-	0.000012 µM
C=C1CN(S(=O)(=O)c2ccc(C)cc2)CCCN(Cc2ccccc2)CCCN(S(=O)(=O)c2ccc(C)cc2)C1	Pyridinone-resistant (RT K103N Y181C)	MT-4	A17	-	2 µM
Cc1cn([C@]2(C)CO[C@@H](CO)O2)c(=O)[nH]c1=O	-	MT-4	-	-	>100 µM
CCN(CC)C(=S)S	-	CEM-SS	-	-	>100 µM
Fc1cccc(C2SCc3nc4cc5ccccc5cc4n32)c1	-	CEM + CEM-SS	RF	-	>200 µM
Nc1ncnc2c1ncn2[C@@H]1CO[C@@H](CO)S1	-	MT-4	-	-	>100 µg/mL
c1ccc(CNCc2ccc(CN3CCCNCCNCCCNCC3)cc2)nc1	-	-	NL4-3	-	0.001–0.01 µg/mL
CSc1nc(=O)n([C@H]2C[C@H](N=[N+]=[N-])[C@@H](CO)O2)cc1C	-	MT-4	-	-	31 µM

Repeating the final 5 entries:

structure	changes	cells	strain	setting	value
CCN(CC)C(=S)S	-	CEM-SS	-	-	>100 µM
Fc1cccc(C2SCc3nc4cc5ccccc5cc4n32)c1	-	CEM + CEM-SS	RF	-	>200 µM
Nc1ncnc2c1ncn2[C@@H]1CO[C@@H](CO)S1	-	MT-4	-	-	>100 µg/mL
c1ccc(CNCc2ccc(CN3CCCNCCNCCCNCC3)cc2)nc1	-	-	NL4-3	-	0.001–0.01 µg/mL
CSc1nc(=O)n([C@H]2C[C@H](N=[N+]=[N-])[C@@H](CO)O2)cc1C	-	MT-4	-	-	31 µM

Blank or dashed fields: not listed here. ECn: concentration that inhibits the pathogen or its effect by n%. Rows are shuffled and stem from different studies.